Results of unrelated studies side by side (data: NIAID ChemDB).

Shared fields: enzyme or target tests; species: Hepatitis C virus

Two numbers with a dash give a range or band.

SMILES | measure | strain or isolate | protein | tested at | read by | result
CC[C@@H](C=O)NC(=O)[C@@H]1C[C@@H](OCc2ccccc2)CN1C(=O)[C@@H](NC(=O)c1ccccc1)C(C)C | Ki | - | NS3 protease | - | - | 1–100 µM
CNC(=O)c1c(-c2ccc(F)cc2)oc2cc(N(C)S(C)(=O)=O)c(OCc3nnnn3C)cc12 | IC50 | - | Nonstructural protein 5B | - | - | ≤0.5 µM
COc1cccc(O)c1-c1ccc2cc(-c3nc4cc(C(=O)O)ccc4n3C3CCCCC3)ccc2n1 | inhibition | - | NS5B polymerase | 33 µM | - | 105%
CC[C@@H](C=O)NC(=O)[C@@H]1C[C@@H](OCc2cccc(C#N)c2)CN1C(=O)[C@@H](NC(=O)[C@@H](NC(=O)c1cnccn1)C(C)C)C(C)C | Ki | - | NS3 protease | - | - | 1–100 µM
O=C(O)c1nn2c(C3CCCCC3)c(-c3ccc(OCc4ccccc4)cc3)cnc2c1Br | IC50 | - | RNA-dependent RNA polymerase | - | - | 1–10 µM
CN(C(=O)c1ccc(Cl)cc1Cl)[C@@H](Cc1ccccc1)C(=O)O | IC50 | - | RNA-dependent RNA polymerase | - | - | 5–20 µM
COc1cccc(-c2cc(-c3ccc(OC)c(Cl)c3)n3nc(C(=O)O)cc3n2)c1 | IC50 | - | RNA-dependent RNA polymerase | - | - | >10 µM
O=C(O)C(Cc1ccccc1)N(Cc1ccc(-c2cc(F)cc(F)c2)s1)C(=O)c1ccc(Cl)cc1Cl | IC50 | - | RNA-dependent RNA polymerase | - | - | <5 µM
CC[C@@H](C=O)NC(=O)[C@@H]1C[C@@H](OCc2ccccc2)CN1C(=O)[C@@H](NC(=O)c1c(-c2ccccc2Cl)noc1C)C(C)C | Ki | - | NS3 protease | - | - | >100 µM
O=C(O)C(Cc1ccccc1)N(Cc1ccc(-c2ccccc2C(F)(F)F)o1)C(=O)c1ccc(Cl)cc1Cl | IC50 | - | RNA-dependent RNA polymerase | - | - | <5 µM
O=C(O)CCC(NC(=O)c1ccc2c(c1)nc(-c1ccc3nc(-c4ccccc4)ccc3c1)n2C1CCCCC1)C(=O)O | inhibition | - | NS5B polymerase | 33 µM | - | 79.74%
CC[C@@H](C=O)NC(=O)[C@@H]1C[C@@H](OC(=O)Nc2ccc(N3CCCCC3)c([N+](=O)[O-])c2)CN1C(=O)[C@@H](NC(=O)[C@@H](NC(=O)c1cnccn1)C(C)C)C(C)C | Ki | - | NS3 protease | - | - | 1–100 µM
CS(=O)(=O)Nc1cnn2c(C3CCCCC3)c(-c3ccc(OCc4ccccc4)cc3)cnc12 | IC50 | - | RNA-dependent RNA polymerase | - | - | >10 µM
O=C(O)[C@H](Cc1ccccc1)N(Cc1cnc(N2CCCCC2)s1)C(=O)c1ccc(Cl)cc1Cl | IC50 | - | RNA-dependent RNA polymerase | - | - | <5 µM
CC(=O)N[C@H](C(=O)N[C@H](C(=O)N1C[C@H](Oc2cncc3ccccc23)CC1C(=O)NC1(C(=O)O)CC1)C(C)C)C1CCCCC1 | IC50 | - | NS3 protease | - | - | 4 µM
CNC(=O)c1c(-c2ccc(F)cc2)oc2cc(N3CCOCC3)c(OCc3nn(C)cc3Cl)cc12 | IC50 | - | Nonstructural protein 5B | - | - | ≤0.5 µM
O=C(NC(Cc1c[nH]c2ccc(O)cc12)C(=O)O)c1ccc2c(c1)nc(-c1ccc3nc(-c4cc(C(=O)N5CCCC5)ccc4-c4ccc(Cl)cc4)cnc3c1)n2C1CCCCC1 | inhibition | - | NS5B polymerase | 33 µM | - | 99.07%
C=C[C@H]1C[C@@]1(NC(=O)[C@@H]1C[C@@H](Oc2cc(-c3ccccc3)nc3cc(OC)ccc23)CN1C(=O)[C@@H](NC(=O)OC(C)(C)C)C(C)(C)C)C(=O)NS(=O)(=O)C1(Cc2c(C)noc2C)CC1 | IC50 | BMS | NS3/NS4A protease | - | - | 0.05–0.5 µM
CNC(=O)c1c(-c2ccc(F)cc2)oc2cc(N(C)S(C)(=O)=O)c(OCc3ccc4c(c3)OC(C)(C)OC4=O)cc12 | IC50 | - | Nonstructural protein 5B | - | - | ≤0.5 µM
CC(=O)N[C@H](C(=O)N[C@H](C(=O)N1C[C@H](Sc2ccnc3c(C(F)(F)F)cccc23)CC1C(=O)NC1(C(=O)O)CC1)C(C)C)C1CCCCC1 | IC50 | - | NS3 protease | - | - | 9 µM
CC[C@H](NC(=O)[C@@H]1C[C@@H](OCc2ccccc2)CN1C(=O)[C@@H](NC(=O)[C@@H](NC(=O)c1cnccn1)C(C)C)C(C)C)C(=O)C(=O)CCc1ccccc1 | Ki | - | NS3 protease | - | - | 1–100 µM
C=C[C@H]1C[C@@]1(NC(=O)[C@@H]1C[C@@H](Oc2cc(-c3ccccc3)nc3cc(OC)ccc23)CN1C(=O)[C@@H](NC(=O)OC(C)(C)C)C(C)C)C(=O)NS(=O)(=O)C1(CCOC)CC1 | IC50 | BMS | NS3/NS4A protease | - | - | <0.05 µM
COc1ccc(-c2cccc(Cl)c2)c(-c2ccc3cc(-c4nc5cc(C(=O)O)ccc5n4C4CCCCC4)ccc3n2)c1 | inhibition | - | NS5B polymerase | 33 µM | - | 98.76%
CC[C@H](NC(=O)[C@H](CC(C)C)NC(=O)[C@@H](NC(=O)[C@@H](NC(=O)c1cnccn1)C(C)C)C(C)C)C(=O)C(=O)NCCc1ccc(OCc2ccccc2)c(OCc2ccccc2)c1 | Ki | - | NS3 protease | - | - | 1–100 µM
C=C[C@H]1C[C@@]1(NC(=O)[C@@H]1C[C@@H](Oc2cc(-c3ccccc3)nc3cc(OC)ccc23)CN1C(=O)[C@@H](NC(=O)OC1CCCC1)C(C)(C)C)C(=O)NS(=O)(=O)C1(Cc2ccccc2)CC1 | IC50 | BMS | NS3/NS4A protease | - | - | <0.05 µM
O=C(O)C(Cc1ccccc1)N(Cc1ccc(-c2ccncc2)s1)C(=O)c1ccc(Cl)cc1Cl | IC50 | - | RNA-dependent RNA polymerase | - | - | <5 µM
O=C(O)c1ccc2c(c1)nc(-c1ccc3nc(-c4cccnc4)ccc3c1)n2C1CCCCC1 | inhibition | - | NS5B polymerase | 33 µM | - | 72.35%
COc1cc(C)c(S(=O)(=O)N(Cc2cccc(-c3cc4ccccc4o3)c2)[C@H](Cc2ccccc2)C(=O)O)c(C)c1C | IC50 | - | Nonstructural protein 3 NTPase/helicase | - | HPLC | >20 µM
c1cc(OC2CCCC2)cc(-c2cnc3c(-c4nn[nH]n4)cnn3c2C2CCCCC2)c1 | IC50 | - | RNA-dependent RNA polymerase | - | - | 1–10 µM
CC[C@H](NC(=O)[C@H](CC(C)C)NC(=O)[C@@H](NC(=O)[C@@H](NC(=O)[C@H](CC(=O)O)CC(=O)[C@H](CCC(=O)O)NC(C)=O)C(C)C)C(C)C)C(=O)C(=O)NCCc1ccccc1 | Ki | - | NS3 protease | - | - | <1 µM
O=C(O)c1ccc2c(c1)nc(-c1ccc3cc(-c4ccccc4)cnc3c1)n2C1CCCCC1 | inhibition | - | NS5B polymerase | 100 µM | - | 98.13%
CNC(=O)c1c(-c2ccc(F)cc2)oc2cc(-c3noc(C)n3)c(OC)cc12 | IC50 | - | Nonstructural protein 5B | - | - | ≤0.5 µM
O=C(O)c1cc2nc(-c3ccc(Oc4ccccc4)cc3)c(C3CCCCC3)c(=O)n2[nH]1 | IC50 | - | RNA-dependent RNA polymerase | - | - | 1–10 µM
C=CC1CC1(NC(=O)[C@@H]1C[C@@H](Oc2cc(-c3ccccc3)nc3cc(OC)ccc23)CN1C(=O)[C@@H](NC(=O)OC1CCCC1)C(C)(C)C)C(=O)NS(=O)(=O)C1(C)CC1 | IC50 | BMS | NS3/NS4A protease | - | - | <0.05 µM
CC(=O)N[C@H](C(=O)N[C@H](C(=O)N1C[C@H](Oc2ccccc2-c2ccc(C(=O)O)cc2)CC1C(=O)NC1(C(=O)O)CC1)C(C)C)C1CCCCC1 | IC50 | - | NS3 protease | - | - | >200 µM
C=CC1C[C@@]1(NC(=O)[C@@H]1C[C@@H](Oc2cc(-c3ccccc3)nc3cc(OC)ccc23)CN1C(=O)[C@@H](NC(=O)Oc1ccc(F)cc1)C(C)(C)C)C(=O)NS(=O)(=O)C1(Cc2ccccc2)CC1 | IC50 | BMS | NS3/NS4A protease | - | - | 0.05–0.5 µM
CC[C@@H](C=O)NC(=O)[C@@H]1C[C@@H](OCc2ccccc2)CN1C(=O)[C@@H](NC(=O)CCc1ccccc1)C(C)C | Ki | - | NS3 protease | - | - | >100 µM
CNC(=O)c1c(-c2ccc(F)cc2)oc2cc(OCc3ccccc3)c(OC)cc12 | IC50 | - | Nonstructural protein 5B | - | - | ≤0.5 µM
COc1ccc(-c2ccc(O[C@@H]3CC(C(=O)NC4(C(=O)O)CC4)N(C(=O)[C@@H](NC(=O)[C@@H](NC(C)=O)C4CCCCC4)C(C)C)C3)cc2)cc1 | IC50 | - | NS3 protease | - | - | 35 µM
CC(C)COC(=O)N[C@@H](CCC(=O)O)CC(=O)N[C@H](CC(C)C)C(=O)N[C@H](CC(F)F)C(=O)NCCc1ccc(C(=O)O)cc1Cl | IC50 | - | NS3 serine protease | - | - | 0.6 µM

Blank or dashed fields: not listed here. ICn: concentration for n% inhibition. Rows are shuffled and stem from different studies. Percent inhibition refers to the dose given; in toxicity tests it is the harm to the cells.